{"source": "PubChem BioAssay AID1259414 (Drosophila RNAi Screening Center, 2018)", "test": "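Genome-wide screen for host control of endosymbiont load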 (primary screen)", "system": "Drosophila JW18 cells infected with Wolbachia", "reagent": "long dsRNA against Drosophila genes, 0.25 µg dsRNA per well of a 384-well plate", "time to read-out": "5 days", "conditions": "cells persistently infected with Wolbachia before knock-down; no added drug", "read-out": "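Imaged fluorescence in situ signal for Wolbachia 23S rRNA per DAPI-counted host cell, given as a robust z-score within each plate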", "direction": "Wolbachia per cell robust z: higher = more Wolbachia per host cell than the plate typical", "rule for the call": "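Active if absolute robust z reaches 1.5 in two or more of three replicates, leaving out multi- or no-target dsRNAs, genes unexpressed in JW18 and A1 wells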", "note": "The deposit covers about 24,000 reagents; shown is an unselected part of those that have a named target and a result. In the full data, about 1,210 (5%) were called active. 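Inactive calls also include excluded dsRNAs with several or no targets, genes unexpressed in JW18, and well A1, regardless of score.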 A number with no mark means an inactive call."}
{"gene": "Cyp12c1 (Cytochrome P450 12c1)", "amplicon": "DRSC11125", "Wolbachia per cell robust z, rep 1": -2.17, "Wolbachia per cell robust z, rep 2": 0.0197, "Wolbachia per cell robust z, rep 3": 0.0301}
{"gene": "Cyp12c1 (Cytochrome P450 12c1)", "amplicon": "DRSC24262", "Wolbachia per cell robust z, rep 1": 1.12, "Wolbachia per cell robust z, rep 2": -0.425, "Wolbachia per cell robust z, rep 3": -0.283}
{"gene": "TER94 (Transitional endoplasmic reticulum 94)", "amplicon": "DRSC07560", "Wolbachia per cell robust z, rep 1": 0.484, "Wolbachia per cell robust z, rep 2": -0.9, "Wolbachia per cell robust z, rep 3": 0.289}
{"gene": "TER94 (Transitional endoplasmic reticulum 94)", "amplicon": "DRSC27600", "Wolbachia per cell robust z, rep 1": -0.557, "Wolbachia per cell robust z, rep 2": 0.65, "Wolbachia per cell robust z, rep 3": 0.682}

2 of these entries, reformatted.
gene | amplicon | Wolbachia per cell robust z, rep 1 | Wolbachia per cell robust z, rep 2 | Wolbachia per cell robust z, rep 3
Cyp12c1 (Cytochrome P450 12c1) | DRSC11125 | -2.17 | 0.0197 | 0.0301
Cyp12c1 (Cytochrome P450 12c1) | DRSC24262 | 1.12 | -0.425 | -0.283

The listing continues.
{"gene": "CG13579", "amplicon": "DRSC04215", "Wolbachia per cell robust z, rep 1": 0.124, "Wolbachia per cell robust z, rep 2": -1.5, "Wolbachia per cell robust z, rep 3": 0.754}
{"gene": "CG13579", "amplicon": "DRSC25603", "Wolbachia per cell robust z, rep 1": -0.291, "Wolbachia per cell robust z, rep 2": -0.619, "Wolbachia per cell robust z, rep 3": -0.71}
{"gene": "Timp (Tissue inhibitor of metalloproteases)", "amplicon": "DRSC17082", "Wolbachia per cell robust z, rep 1": 0.0843, "Wolbachia per cell robust z, rep 2": 0.305, "Wolbachia per cell robust z, rep 3": -0.669}
{"gene": "Elp5 (Elongator complex protein 5)", "amplicon": "DRSC08547", "Wolbachia per cell robust z, rep 1": 0.095, "Wolbachia per cell robust z, rep 2": -0.353, "Wolbachia per cell robust z, rep 3": -0.239}
{"gene": "Vha36-1 (Vacuolar H[+] ATPase 36kD subunit 1)", "amplicon": "DRSC07098", "Wolbachia per cell robust z, rep 1": "-1.99 (active)", "Wolbachia per cell robust z, rep 2": -6.57, "Wolbachia per cell robust z, rep 3": -0.858}
{"gene": "Vha36-1 (Vacuolar H[+] ATPase 36kD subunit 1)", "amplicon": "DRSC25624", "Wolbachia per cell robust z, rep 1": 0.475, "Wolbachia per cell robust z, rep 2": -0.702, "Wolbachia per cell robust z, rep 3": -0.645}
{"gene": "Rab18", "amplicon": "DRSC18702", "Wolbachia per cell robust z, rep 1": 0.457, "Wolbachia per cell robust z, rep 2": 0.191, "Wolbachia per cell robust z, rep 3": 0.255}
{"gene": "Rab18", "amplicon": "DRSC26667", "Wolbachia per cell robust z, rep 1": 1.22, "Wolbachia per cell robust z, rep 2": -1.29, "Wolbachia per cell robust z, rep 3": 0.837}
